Source: PubChem BioAssay AID504761 (Drosophila RNAi Screening Center, 2011)
In all, the deposit lists about 22,000 reagents; below is an unselected part of those that have a named target and a result. In the full data, 116 (0.52%) got an active call. 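Calls depend on retest data that are not deposited; infection was ranked per plate without normalising between plates; the unit of the infection score is not given.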 The raw values are shown without normalisation. Reagents against one gene are numbered here. Names joined by + are all predicted targets of the reagent. No sequences are given here. Not given: the amount of reagent, the time to read-out.

- Purpose: 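Insect host genes that dengue virus relies on to spread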 (primary screen)
- System: D.Mel-2 cells from Drosophila
- Reagents: long dsRNA against Drosophila genes
- Conditions: infection with dengue virus type 2; dose and infection time not stated
- Read-out: 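Cells stained for dengue envelope protein and imaged; percent of infected cells per well on duplicate plates, ranked by infection, with stained nuclei counted for cell number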
- Scale: infection score: higher = more virus-infected cells; cell count: higher = more cells in the well
- Call rule: 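Very low infection ranking in both replicate wells (chance probability at most 0.065), then a retest showing infection dropped 1.5-fold or more at p below 0.05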
- Calls: active = confirmed: knock-down lowers infection; inactive = not picked or not confirmed

no.	target	reagent no.	infection score, replicate 1	infection score, replicate 2	cell count, replicate 1	cell count, replicate 2	outcome
1	ix (intersex)	1	5.06	25.6	6010	5592	inactive
2	ix (intersex)	2	4.83	1.52	6496	4859	inactive
3	CG11638	1	7.33	0.57	4377	6505	inactive
4	CG11638	2	3.42	0.72	5031	6543	inactive
5	kl-2 (male fertility factor kl2)	1	5.56	1.22	6201	5898	inactive
6	Nepl18 (Neprilysin-like 18)	1	2.74	5.32	6237	5832	inactive
7	Nepl20 (Neprilysin-like 20)	1	10.7	9.33	3695	7246	inactive
8	CG17145	1	4.77	3.78	6729	6566	inactive
9	Had2 (beta Hydroxy acid dehydrogenase 2)	1	9.35	8.33	6267	6505	inactive
10	Had2 (beta Hydroxy acid dehydrogenase 2)	2	7.03	6.44	6430	6058	inactive
11	CG16863	1	2.2	1.13	6397	6658	inactive
12	eIF1 (eukaryotic translation initiation factor 1)	1	1.16	3.94	5933	5349	inactive
13	eIF1 (eukaryotic translation initiation factor 1)	2	5.03	4.96	6427	5829	inactive
14	PK1-R (Pyrokinin 1 receptor)	1	3.3	4.37	6486	6766	inactive
15	CG11695	1	24.6	10.6	4492	5556	inactive
16	CG11695	2	10.8	6.82	6978	6542	inactive
17	CG32069 + Blos2	1	1.83	2.83	6544	6575	inactive
18	ind (intermediate neuroblasts defective)	1	0.56	0.76	6262	6564	active
19	miple1 (midkine and pleiotrophin 1)	1	1.63	1.34	5752	5758	inactive
20	CG6908	1	3.75	2.48	6484	6615	inactive
21	CG6908	2	3.95	2.2	5417	5959	inactive
22	pb (proboscipedia)	1	0.76	0.91	6337	5165	inactive
23	pb (proboscipedia)	2	3.65	7.46	5590	6127	inactive
24	pb (proboscipedia)	3	1.77	4.47	6271	6288	inactive
25	Spn42Db (Serpin 42Db)	1	24.5		5968	398	inactive

Continued, starting with the last 3 of the part before.
no.	target	reagent no.	infection score, replicate 1	infection score, replicate 2	cell count, replicate 1	cell count, replicate 2	outcome
23	pb (proboscipedia)	2	3.65	7.46	5590	6127	inactive
24	pb (proboscipedia)	3	1.77	4.47	6271	6288	inactive
25	Spn42Db (Serpin 42Db)	1	24.5		5968	398	inactive
26	CG10492	1	17	21.3	4869	5367	inactive
27	Saysd1 (SAYSVFN motif domain containing 1)	1	4.72	12.7	6310	6528	inactive
28	CSN6 (COP9 signalosome subunit 6)	1			425	337	inactive
29	cona (corona)	1	6.86	14.5	6443	6179	inactive
30	CheB93b (Chemosensory protein B 93b)	1	6.19	12.2	6719	5935	inactive
31	Ant2 (Adenine nucleotide translocase 2)	1	8.71	5.8	6932	6894	inactive
32	Ant2 (Adenine nucleotide translocase 2)	2	1.64	7.77	6809	5816	inactive
33	ana1 (anastral spindle 1)	1	8.15	2.11	5802	6299	inactive
34	ana1 (anastral spindle 1)	2	4.82	0.91	6529	6681	inactive
35	ana1 (anastral spindle 1)	3	6.04	8.77	6474	5950	inactive
36	CG11788	1	2.39	6.5	5863	6528	inactive
37	lolal (lola like)	1	9.42	9.8	6780	6987	inactive
38	CG14257	1	12.4	3.41	5482	6536	inactive
39	CG14257	2	30.8	33.1	5636	6394	inactive
40	Nadk1a (NAD kinase 1a)	1	4.73	1.2	6003	5658	inactive
41	Nadk1a (NAD kinase 1a)	2	12	6.63	5424	6279	inactive
42	CCHa2 (CCHamide-2)	1	3.74	10.5	6419	6811	inactive
43	CG12551 (retired record)	1	3.07	5.99	6460	6928	inactive
44	CG12551 (retired record)	2	1.95	9.96	6720	6777	inactive
45	CG12551 (retired record)	3	7.68	15.6	6116	6389	inactive
46	CG12551 (retired record)	4	3.56	11.2	6299	6554	inactive
47	igl (igloo)	1	12.3	4.55	5871	6632	inactive
48	igl (igloo)	2	7.24		1354	332	inactive
49	clos (closca)	1	8.13	15.7	6923	5862	inactive
50	clos (closca)	2	2.51	19	7328	6434	inactive
51	clos (closca)	3	7.3	7.24	6655	6258	inactive
52	clos (closca)	4	15.2	2.8	6085	6583	inactive
53	clos (closca)	5	0.37	2.02	6181	7037	inactive
54	CG31102	1	10.3		6037	365	inactive
55	CG31102	2	7.65	5.11	5674	6812	inactive
56	nkd (naked cuticle)	1	5.24	4.05	6756	6665	inactive
57	nkd (naked cuticle)	2	15	14.5	6085	6913	inactive
58	Caf1-55 (Chromatin assembly factor 1, p55 subunit)	1	6.91	27.9	1895	3436	inactive
